Measured values from several laboratories, pooled; numbers as filed in NIAID ChemDB.

Shared fields: host cell toxicity; cell line: HFF; method: neutral red; measure: CC50

Rows are shuffled and stem from different studies. CCn: concentration that lowers growth or viability of the cells by n%.

Cc1cn([C@@H]2O[C@H](CO)[C@H]2CO)c(=O)[nH]c1=O ; value: >100 µg/mL
Nc1nc2c(ncn2/C=C2/CC2[C@H](O)CO)c(=O)[nH]1 ; value: >300 µM
COC(=O)[C@H](C)NP(=O)(OC[C@H]1C/C1=C/n1cnc2c(N)nc(N)nc21)Oc1ccccc1 ; value: 121 µM
Nc1nc2c(ncn2/C=C2\CC2[C@H](O)CO)c(=O)[nH]1 ; value: >300 µM
Nc1nc(F)c2ncn(/C=C3\CC3(CO)CO)c2n1 ; value: >377 µM
CCCCCCOc1nc(N)nc2c1ncn2/C=C1/C[C@@H]1CO ; value: >300 µM
COC(=O)[C@H](C)NP(=O)(OC[C@H]1C/C1=C/n1cnc2c(OC)nc(N)nc21)Oc1ccccc1 ; value: 34 µM
Nc1nc2c(ncn2C=C2CC2CO)c(=O)[nH]1 ; value: >429 µM
Nc1nc(NC2CC2)c2ncn(C=C3CC3CO)c2n1 ; value: 327 µM
O[C@@H]1[C@H](O)[C@H](O)CO[C@H]1n1c(Br)nc2cc(Cl)c(Cl)cc21 ; value: 152 µM
CCCCCOc1nc(N)nc2c1ncn2/C=C1/C[C@@H]1CO ; value: >300 µM
OC[C@H]1O[C@@H](n2c(Br)nc3cc(Cl)c(Cl)cc32)[C@H](O)[C@@H]1O ; value: 170 µM
CC(C)COc1nc(N)nc2c1ncn2/C=C1/C[C@@H]1CO ; value: >300 µM
CCCCCCCCCCCCCCOCCCOP(=O)(O)CO[C@H](CO)Cn1ccc(N)nc1=O ; value: >100 µM
Cc1cc(C)c(OC(=O)c2ccc(Cl)cc2)c(=O)c(C)c1 ; value: 33.3 µM
CCCCCCCCCCCCCCCCCCOCCOP1(=O)CO[C@@H](Cn2ccc(N)nc2=O)CO1 ; value: 68 µM
COC(=O)[C@H](C)NP(=O)(OC[C@H]1C/C1=C/n1cnc2c(=O)[nH]c(N)nc21)Oc1ccccc1 ; value: >205 µM
O=Cc1cn([C@@H]2C[C@H](O)[C@@H](CO)O2)c(=O)[nH]c1=O ; value: >300 µM
Nc1nc2c(ncn2/C=C2/CC2(CO)CO)c(=O)[nH]1 ; value: >404 µM
COc1nc(N)nc2c1ncn2C=C1CC1CO ; value: 404 µM
O=C(NCc1ccc(Cl)cc1)c1cn2c(CCN3CCOCC3)cc3cc(CN4CCOCC4)cc(c1=O)c32 ; value: 13 µM
CCCCCCCCCCCCCCCCCOC[C@H](COP1(=O)CO[C@@H](Cn2ccc(N)nc2=O)CO1)OCc1ccccc1 ; value: 77 µM
CC(C)c1ccc(O)c(O)c(=O)c1 ; value: 6.7 µM
CCCCCCCCCCCCOCCCOP1(=O)CO[C@@H](Cn2ccc(N)nc2=O)CO1 ; value: 63 µM
O=C(NCc1ccc(Cl)cc1)c1cn2c3c(cc(CN4CCOCC4)cc3c1=O)OC(c1cccnc1)C2 ; value: >19 µM
Nc1nc(Cl)c2ncn(/C=C3/C[C@H]3CO)c2n1 ; value: 185 µM
CCCCCCCCCCCCOCCCOP(=O)(O)CO[C@H](CO)Cn1ccc(N)nc1=O ; value: >190 µM

A second listing of 2 rows from above:

structure	value
Nc1nc2c(ncn2/C=C2\CC2[C@H](O)CO)c(=O)[nH]1	>300 µM
Nc1nc(Cl)c2ncn(/C=C3/C[C@H]3CO)c2n1	185 µM